Results of unrelated studies side by side (data: NIAID ChemDB).

Shared fields: growth or infection tests; agent: HIV-1; measure: EC50

Blank or dashed fields: not listed here.

Cc1ccnc2c1NC(=O)c1cccnc1N2C1CC1 ; cell line: MT-4 ; changes: K103N Y181C NNRTI-resistant ; read by: MTT ; strain or isolate: IIIB ; value: ≥11 µM
C[C@@H]1[C@H](O)[C@@H](CO)O[C@H]1n1ccc(N)nc1=O ; cell line: MT-4 ; read by: MTT ; value: >100 µM
Cc1cn([C@H]2C[C@H](N=[N+]=[N-])[C@@H](CO)O2)c(=O)[nH]c1=O ; cell line: MT-4 ; read by: cytopathic effect / MTT ; strain or isolate: WT ; value: 0.07 µM
O=c1ccn([C@@H]2CC(CO)(CO)CS2)c(=O)[nH]1 ; cell line: MT-4 ; read by: cytopathic effect ; value: >100 µg/mL
CSc1c(C)c(SC)n2ccncc12 ; cell line: CEM ; read by: MTT / p24 ; strain or isolate: IIIB ; value: ~25 µM
Cc1cn([C@H]2C[C@H](N=[N+]=[N-])[C@@H](CO)O2)c(=O)n(N)c1=O ; cell line: PBMC ; read by: p24 / RT activity ; strain or isolate: BRU ; value: <2.5 µM
COC(=O)c1cn(C)c2cc(Oc3ccnc(Nc4ccc(C#N)cc4)n3)c(Br)cc2c1=O ; cell line: MT-4 ; read by: MTT ; strain or isolate: IIIB ; value: 0.32 µM
CCCCCCCCCCCCSCC(COP(=O)([O-])OCC[N+](C)(C)C)OCCCCCCCCC(=O)OCC(=O)OC[C@H]1O[C@@H](n2cc(C)c(=O)[nH]c2=O)C[C@@H]1N=[N+]=[N-] ; cell line: CEM + CEM-SS ; read by: plaque count ; strain or isolate: HXB2 WT ; value: 0.003 µM
Cc1cn([C@H]2C[C@H](N=[N+]=[N-])[C@@H](CO)O2)c(=O)[nH]c1=O ; cell line: MT-4 ; read by: cytopathic effect ; value: 0.0007 µg/mL
Cc1cn([C@H]2C[C@H](N=[N+]=[N-])[C@@H](COC(=O)NCCSC(=O)OC[C@H]3O[C@@H](n4cc(C)c(=O)[nH]c4=O)C[C@@H]3N=[N+]=[N-])O2)c(=O)[nH]c1=O ; cell line: MT-4 ; changes: RT-Y181C ; read by: cytopathic effect / MTT ; strain or isolate: NNRTI-resistant (RT Y181C) ; value: 1 µM
Fc1ccc(F)c(C2OCc3nc4ccccc4n32)c1 ; cell line: MT-4 ; read by: cytopathic effect ; strain or isolate: IIIB ; value: 6.1 µM
CCC(C)n1cc(C(=O)O)c(=O)c2cc(Br)c(Oc3ccnc(Nc4ccc(C#N)cc4)n3)cc21 ; cell line: MT-4 ; changes: K103N Y181C NNRTI-resistant ; read by: MTT ; strain or isolate: IIIB ; value: 0.9 µM
CC(C)n1nc(-c2ccc3oc(N)nc3c2)c2c(N)ncnc21 ; cell line: PBL ; read by: p24 / ELISA ; strain or isolate: BaL ; value: 0.0105 µM
CCC[C@@]1(CCc2ccccc2)CC(O)=C([C@H](CC)c2cccc(NS(=O)(=O)c3ccc(C(F)(F)F)cn3)c2)C(=O)O1 ; cell line: MT-4 ; strain or isolate: NL4-3 ; value: 0.128 µM
Cn1cc(C(=O)O)c(=O)c2cc(Br)c(Oc3ccnc(Nc4ccc(C#N)cc4)n3)cc21 ; cell line: MT-4 ; changes: K103N Y181C NNRTI-resistant ; read by: MTT ; strain or isolate: IIIB ; value: >8.78 µM
Nc1nc2c(ncn2CCOCP(=O)(O)O)c(=O)[nH]1 ; value: 0.7 µM
O=C1N(Cc2ccc(CO)cc2)[C@H](Cc2ccccc2)[C@H](O)[C@@H](O)[C@@H](Cc2ccccc2)N1Cc1ccc(CO)cc1 ; cell line: MT-4 ; changes: PR-L10R L63P ; read by: p24 ; strain or isolate: NL4-3 ; value: <0.2 µM
CCn1cc(C(=O)O)c(=O)c2cc(Br)c(Oc3ccnc(Nc4ccc(C#N)cc4)n3)cc21 ; cell line: MT-4 ; changes: K103N Y181C NNRTI-resistant ; read by: MTT ; strain or isolate: IIIB ; value: 4.54 µM
NC(=O)c1ncn([C@@H]2O[C@H](CO)[C@@H](O)[C@H]2O)n1 ; cell line: MT-4 ; read by: MTT ; value: >31 µM
CC(C)(C)NC(=O)[C@@H]1C[C@@H]2CCCC[C@@H]2CN1C[C@@H](O)[C@H](Cc1ccccc1)NC(=O)[C@H](CC(N)=O)NC(=O)c1ccc2ccccc2n1 ; cell line: CEM + CEM-SS ; read by: plaque count ; strain or isolate: RF2803 WT ; value: 0.003 µM
Cc1cc(C#N)cc(C)c1Oc1nc(Nc2ccc(C#N)cc2)nc(N)c1Br ; cell line: MT-4 ; changes: K103N Y181C NNRTI-resistant ; read by: MTT ; strain or isolate: IIIB ; value: 0.014 µM
CC(C)CN(C[C@@H](O)[C@H](Cc1ccccc1)NC(=O)O[C@H]1CO[C@H]2OCC[C@H]21)S(=O)(=O)c1ccc(C(N)=O)cc1 ; cell line: MT-4 ; strain or isolate: NL4-3 ; value: 0.038 µM
O=C1N(Cc2ccc(CO)cc2)[C@H](Cc2ccccc2)[C@H](O)[C@@H](O)[C@@H](Cc2ccccc2)N1Cc1ccc(CO)cc1 ; cell line: PBMC ; read by: p24 ; strain or isolate: Clinical isolate D1 ; value: 0.07 µM
CC(=O)Oc1ccc2ccccc2c1Cc1c(-c2ccccc2)[nH]c2ccccc12 ; cell line: MT-4 ; read by: MTT ; value: >19 µM
Cc1cn([C@H]2C[C@H](N=[N+]=[N-])[C@@H](COC(=O)NCCSC(=O)OC[C@@H]3CC[C@H](n4cnc5c(=O)[nH]cnc54)O3)O2)c(=O)[nH]c1=O ; cell line: MT-4 ; changes: RT-K103R V179D P225H ; read by: cytopathic effect / MTT ; strain or isolate: EFV-resistant (RT K103R V179D P225H) ; value: 0.2 µM
COc1ccc2c(Cc3c[nH]c4ccc(Br)cc34)c(OC(C)=O)ccc2c1 ; cell line: MT-4 ; read by: MTT ; value: 9 µM
CC(C)CN(C[C@@H](O)[C@H](Cc1ccccc1)NC(=O)[C@H](CC(N)=O)NC(=O)c1ccc2ccccc2n1)C(=O)NC(C)(C)C ; cell line: MT-4 ; changes: PR-L10R L63P V82T ; read by: p24 ; strain or isolate: NL4-3 ; value: <0.4 µM
O=c1cnn([C@@H]2O[C@H](CO)[C@@H](O)[C@H]2O)c(=O)[nH]1 ; cell line: MT-4 ; read by: MTT ; value: >0.2 µM
CCCn1cc(C(=O)O)c(=O)c2cc(Br)c(Oc3ccnc(Nc4ccc(C#N)cc4)n3)cc21 ; cell line: MT-4 ; changes: K103N Y181C NNRTI-resistant ; read by: MTT ; strain or isolate: IIIB ; value: 3.15 µM
COc1ccc2c(CN3CCN(Cc4c(O)ccc5cc(OC)ccc45)CC3)c(O)ccc2c1 ; cell line: MT-4 ; read by: MTT ; value: >100 µM
O=C(O)c1cc(O)cc(O)c1N=Nc1ccc(/C=C/c2ccc(N=Nc3c(O)cc(O)cc3C(=O)O)cc2S(=O)(=O)O)c(S(=O)(=O)O)c1 ; cell line: MT-2 ; read by: cytopathic effect / XTT ; strain or isolate: IIIB ; value: 14.5 µg/mL
COc1ccc2c(Cc3c(C)[nH]c4ccccc34)c(OC(C)=O)ccc2c1 ; cell line: MT-4 ; read by: MTT ; value: >18 µM
CC[C@H](C)C=C(C)/C=C/C1=CC2=C(Cl)C(=O)[C@](C)(O)[C@H](CC(C)=O)C2=CO1 ; cell line: PBL ; read by: p24 ; value: <25 µM

Repeating the first 4 entries:

smiles	cell line	changes	read by	strain or isolate	value
Cc1ccnc2c1NC(=O)c1cccnc1N2C1CC1	MT-4	K103N Y181C NNRTI-resistant	MTT	IIIB	≥11 µM
C[C@@H]1[C@H](O)[C@@H](CO)O[C@H]1n1ccc(N)nc1=O	MT-4		MTT		>100 µM
Cc1cn([C@H]2C[C@H](N=[N+]=[N-])[C@@H](CO)O2)c(=O)[nH]c1=O	MT-4		cytopathic effect / MTT	WT	0.07 µM
O=c1ccn([C@@H]2CC(CO)(CO)CS2)c(=O)[nH]1	MT-4		cytopathic effect		>100 µg/mL

Lines come from different laboratories, so protocols vary. ECn: concentration that inhibits the pathogen or its effect by n%.